From patent US8349839B2, “Inhibitors of HIV replication” (Boehringer Ingelheim International GmbH, priority 2009, dated 2013) come the findings set out here.

Structures are written as SMILES.

Assay [1] addresses HIV reverse transcriptase (Human immunodeficiency virus type 1 group M subtype B, UniProt P04585). Nature of the assay: HIV Reverse Transcriptase Assay (IC50). The note with it: assay of Example 67; 1 mM of ATP added to the reaction mixture. Here is the method:
(§1) Diluted solutions of stock solutions of compounds of Formula I in DMSO are prepared in assay buffer in Eppendorf tubes 16 h prior to their use in the biological assay, using a minimal supplementary volume of 75 μL of assay buffer in addition to the volume required in the assay. The samples are vortexed for 10 min at RT and incubated for 16 h at 4° C. The equilibrated solutions are centrifuged at 16 000 g for 5 min in a centrifuge equipped with an internal chiller, which is pre-equilibrated at 4° C., and the supernatant is collected. The portion of supernatant required for the serial dilutions in the biological assay is transferred to the compound dilution plate and a 75 μL portion of the remaining supernatant is transferred to a 1.4 mL tube (Micronic). A 25 μL volume of DMSO is promptly added and the sample is submitted for concentration determination by HPLC, along with the stock solution of the compound in DMSO as a standard for concentration determination analysis.
HIV Reverse Transcriptase Assay (IC50)
The assay used to measure inhibition of HIV reverse transcriptase is as described in WO 2006/034583, pages 52-53, incorporated herein by reference, except that 1 mM of ATP was added to the reaction mixture.

Assay [2] relates to HIV-1 replication in C8166 LTRluc cells. Kind of assay: C8166 HIV-1 Luciferase Assay (EC50). In kind it is cell-based. The note with it: assay of Example 68; C8166 LTRluc cells infected with HIV-1 at moi 0.005, 3 days. Here is the method: as §1
C8166 HIV-1 Luciferase Assay (EC50) […]
50 μL Steady Glo (luciferase substrate T1/2=5 hours Promega catalogue # E2520) is added to each well of the 96 well plate. The relative light units (RLU) of luciferase are determined using a luminescence plate reader. The calculated % inhibition values are used to determine EC50, slope factor (n) and maximum inhibition (Imax).

On to `CCCCCn1c(=O)nc(-c2ccccc2)c2oc3ccc(-c4ccc(CN(C)C)cc4)cc3c21`, for which, in assay [1], the IC50 (usually the midpoint of a concentration-inhibition curve) was 27 nM. The EC50 (as a rule, the midpoint of the concentration-response curve) in assay [2] was found to be 99 nM.
